Test results taken from EP2450379B1 (Crucell Holland B.V., dated 2015).

B1: CR6342 (antibody, V domains shown)
VH: QVQLVQSGAEVKKPGSSVKVSCKASGGFFSSYAISWVRQAPGQGLEWMGGVIPIFRTANYAQNFQGRVTITADEFTSYMELSSLRSDDTAVYYCARLNYHDSGTYYNAPRGWFDPWGQGTLVTVSS
VL: DIQMTQSPDSLAVSLGEKATINCKSSQSILNSSNNKNYLAWYQQKPGQPPKLLIYWASTRESGVPDRFSGSGSGTDFTLTISSLQAEDVAVYYCQQYYSSPPTFGQGTKVEIKR
notes: human IgG1
B2: CR6262 (antibody, V domains shown)
VH: QVQLQQSGAEVKKPGSSVKVSCKVSGVIFSGSAISWVRQAPGQGLEWMGGISPLFGTTNYAQKFQGRVTITADQSTNTTYMEVNSLRYEDTAVYFCARGPKYYSEYMDVWGKGTTVTVSS
VL: DIQMTQSPSSLSASVGDRVTITCRASQGISSYLAWYQQKPGKVPTLLIYDASTLRSGVPSRFSGSGSATDFTLTISSLQPEDVATYYCQRYNSAPPITFGQGTRLEIKR
notes: human IgG1
B3: CR6268 (antibody, V domains shown)
VH: QVQLVQSGAEVKKPGSSVKVSCKASGGTFSSYAISWVRQAPGQGLEWMGGIMGMFGTTNYAQKFQGRVTITADEFTSAAYMELRSLRSEDTAVYYCARSSGYYPEYFQDWGQGTLVTVSS
VL: QSVLTQPPSESVSPGQTASVTCSGHKLGDKYVSWYQQKPGQSPVLLIYQDNRRPSGIPERFIGSNSGNTATLTISGTQALDEADYYCQAWDSSTAVFGGGTKLTVLG
notes: human IgG1
B4: CR6336 (antibody, V domains shown)
VH: QMQLVQSGAEVKKPGSSVKVSCKASGGTFSSYAISWVRQAPGQGLEWMGGIFGMFGTANYAQKFQGRVTITADEFTSAAYMELSSLGSEDTAMYYCARSSGYYPQYFQDWGQGTLVTVSS
VL: EIVMTQSPGTLSLSPGQRATLSCRASQSVSSSYLAWYQQKPGQAPRLLMYGASSRATGIPDRFSGSGSGTDFTLTISRLEPEDFAVYYCQQYGSSSLTFGGGTKLEIKR
notes: human IgG1
B5: CR6272 (antibody, V domains shown)
VH: QMQLVQSGAEVKKPGSSVKVSCKASGGTFSSYAITWVRQAPGQGLEWMGGIIGMFGSTNYAQNFQGRVTITADESTSTAYMELSSLRSEDTAVYYCARSTGYYPAYLHHWGQGTLVTVSS
VL: QSALTQPRSVSGSPGQSVTISCTGTSSDVGGYNYVSWYQQHPGKAPKLMIYDVSKRPSGVPDRFSGSKSGNTASLTISGLQAEDEADYYCSSYTSSSTHVFGTGTKVTVLG
notes: human IgG1
B6: CR6325 (antibody, V domains shown)
VH: EVQLVESGAEVKKPGSSVKVSCKASGGTFSFYSMSWVRQAPGQGLEWMGGIIPMFGTTNYAQKFQGRVTITAVESTSTAYMEVSSLRSEDTAVYYCARGDKGIYYYYMDVWGKGTTVTVSS
VL: QSALTQPASVSGSPGQSITISCTGTSSDVGGYNYVSWYQQHPGKAPKLMIYEVSNRPSGVSNRFSGSKSGNTASLTISGLQAEDEADYYCSSYTSSSTLVFGTGTKVTVLG
notes: human IgG1
B7: CR6257 (antibody, V domains shown)
VH: QVQLVQSGAEVKKPGSSVKVSCKASGGPFRSYAISWVRQAPGQGPEWMGGIIPIFGTTKYAPKFQGRVTITADDFAGTVYMELSSLRSEDTAMYYCAKHMGYQVRETMDVWGKGTTVTVSS
VL: QSALTQPAAVSGSPGQSITISCTGTSSDVGGYNYVSWYQQHPGKAPKLMIYEVSNRPSGVSNRFSGSKSGNTASLTISGLQAEDEADYYCSSYTSSSTYVFGTGTKVTVLG
notes: human IgG1
B8: CR6329 (antibody, V domains shown)
VH: EVQLVQSGAEVKKPGSSVKVSCKASGGIFRSNSISWVRQAPGQGLEWMGGIFALFGTTDYAQKFQGRVTITADESSTTVYLELSSLTSEDTAVYYCARGSGYTTRNYFDYWGQGTLVTVSS
VL: EIVLTQSPGTLSLSPGERATLSCRASQSVSSNYLGWYQQKPGQAPRLLIYGASSRASGIPDRFSGGGSGTDFTLTISRLEPEDFAVYYCQQYGSSPLTFGGGTKVEIKR
notes: human IgG1
B9: CR6344 (antibody, V domains shown)
VH: QVQLVQSGAEVKKPGSSVRVSCKASGSIFRNYAMSWVRQAPGQGLEWMGGIIAIFGTPKYAQKFQGRVTITADESTSTVYMELSGLRSEDTAMYYCARIPHYNFGSGSYFDYWGQGTLVTVSS
VL: TVLTQPPSVSGAPGQRVTISCTGSSSNIGAGYDVHWYQQLPGTAPKLLIYGNSNRPSGVPDRFSGSKSGTSATLGITGLQTGDEADYYCGTWDSSLSAYVFGTGTKVTVLG
notes: human IgG1
B10: CR6334 (antibody, V domains shown)
VH: EVQLVETGAEVKKPGSSVKVPCKSSGSPFRSNAVSWVRQAPGQGLEWVGGILGVFGSPSYAQKFQGRVTITADESTNTVHMELRGLRSEDTAVYYCARGPTYYYSYMDVWGKGTTVTVSS
VL: SYVLTQPPSESVAPGQTARITCGGNNIGRNSVHWYQQKPGQAPVLVVYDDSDRPSGIPERFSGSKSGNTATLIISRVEVGDEADYYCQVWHSSSDHYVFGTGTKVTVLG
notes: human IgG1
B11: CR6343 (antibody, V domains shown)
VH: QVQLVQSGAEVKKPGSSVKVSCKASGVTFSYYAMSWVRQAPGQGLEWMGGISPMFGTTTYAQKFQGRVTITADDSTSTAYMEVRSLRSEDTAVYYCARSSNYYDSVYDYWGQGTLVTVSS
VL: QSVVTQPPSESVAPGQTARITCGGHNIGSNSVHWYQQKPGQAPVLVVYDNSDRPSGIPERFSGSNSGNTATLTISRVEAGDEADYYCQVWGSSSDHYVFGTGTKVTVLG
notes: human IgG1
B12: CR6307 (antibody, V domains shown)
VH: QVQLVQSGGGLVKPGGSLRLSCAASGFTFSSYSMNWVRQAPGKGLEWVSSISSSSSYIYYVDSVKGRFTISRDNAKNSLYLQMNSLRAEDTAVYYCARGGGSYGAYEGFDYWGQGTLVTVSS
VL: EIVLTQSPGTLSLSPGERATLSCRASQRVSSYLAWYQQKPGQAPRLLIYGASTRAAGIPDRFSGSGSGTDFTLTISRLEPEDSAVYYCQQYGRTPLTFGGGTKVEIKR
notes: human IgG1
B13: CR6332 (antibody, V domains shown)
VH: QVQLVQSGAEVKKPGSSVKVSCKASGGPFRNFAINWVRQAPGQGLEWMGGIIAVFGTTKYAHKFQGRVTITADDSTNTAYMELGSLKSEDTAVYYCARGPHYYSSYMDVWGEGTTVTVSS
VL: DIQLTQSPSSLSASVGDRVTITCRASQGISTYLAWYQQKPGKVPKLLIYAASTLQSGVPSRFSGSGSGTDFTLTISSLQPEDVATYYCQKYNSAPSFGPGTKVDIKR
notes: human IgG1

Molecular target: HA in BPL-inactivated virus preparation of A/New Caledonia/20/99 (H1N1) (influenza A virus A/New Caledonia/20/99 …)
Assay: ELISA, IgG 5 µg/ml

| Binder | OD 492nm [OD 492nm] |
| --- | --- |
| B1 | 1.32 |
| B2 | 0.51 |
| B3 | 1.39 |
| B4 | 1.09 |
| B5 | 0.92 |
| B6 | 1.09 |
| B7 | 1.34 |
| B8 | 1.04 |
| B9 | 1.31 |
| B10 | 1.13 |
| B11 | 0.91 |
| B12 | 0.23 |
| B13 | 1.2 |
